Results of unrelated studies side by side (data: NIAID ChemDB).

Common to all: toxicity to cultured cells; cell line: ATH8; read-out: CC50

CCn: concentration that lowers growth or viability of the cells by n%.

structure	method	result
O=c1ccn([C@H]2CC[C@@H](CO)S2)c(=O)[nH]1		>80 µM
Nc1ccn([C@H]2C=C[C@@H](CO)O2)c(=O)n1		30 µM
Nc1ncnc2c1ncn2[C@@H]1O[C@H](CO)C[C@@H]1F		100–200 µM
Nc1nc(N)c2ncn([C@H]3CO[C@@H](CO)C3)c2n1		>100 µM
Cc1cc(CCCCCCCOc2ccc(C3=NCCO3)s2)on1		35 µM
O=c1[nH]cnc2c1ncn2[C@@H]1O[C@H](CO)C[C@@H]1F		>100 µM
Nc1nc(Cl)c2ncn([C@H]3CO[C@@H](CO)C3)c2n1		>100 µM
Nc1ccn([C@@H]2S[C@H](CO)C[C@H]2F)c(=O)n1		>80 µM
Cc1cn([C@H]2C[C@H](N=[N+]=[N-])[C@@H](CO)O2)c(=O)[nH]c1=S		>50 µM
Nc1ncnc2c1ncn2C1CC(CO)C1		50 µM
Nc1nc2c(ncn2[C@H]2C=C[C@@H](CO)C2)c(=O)[nH]1		35 µg/mL
COC(=O)[C@H](C)NP(=O)(OCC=C=Cn1cnc2c(=O)[nH]cnc21)Oc1ccccc1		≥10 µM
OC[C@H]1C[C@@H](n2cnc3c(Cl)ncnc32)CO1		>100 µM
Nc1ncnc2c1ncn2[C@H]1CC[C@@H](CO)O1	trypan blue	>5 µM
Nc1ncc2ncn([C@H]3CO[C@@H](CO)C3)c2n1		>100 µM
Cc1cc(-c2ccc(N=Nc3ccc4c(S(=O)(=O)O)cc(S(=O)(=O)O)c(N)c4c3O)c(C)c2)ccc1N=Nc1ccc2c(S(=O)(=O)O)cc(S(=O)(=O)O)c(N)c2c1O		>50 µg/mL
Nc1ccn([C@H]2CC[C@@H](CO)S2)c(=O)n1		>80 µM
Nc1nc(F)c2ncn([C@H]3CO[C@@H](CO)C3)c2n1		>100 µM
O=c1ccn([C@@H]2S[C@H](CO)C[C@H]2F)c(=O)[nH]1		>80 µM
C[N+](C)(C)CCOP(=O)([O-])OP(=O)(O)OCC1CCC(n2ccc(N)nc2=O)O1		>100 µM
O=c1ccn([C@H]2C[C@@H](F)[C@@H](CO)S2)c(=O)[nH]1		>80 µM
Nc1ccn([C@@H]2O[C@H](CO)C3OC32)c(=O)n1		>5 µM

2 of the rows above, restated:

structure	method	result
O=c1ccn([C@H]2C[C@@H](F)[C@@H](CO)S2)c(=O)[nH]1		>80 µM
O=c1ccn([C@@H]2S[C@H](CO)C[C@H]2F)c(=O)[nH]1		>80 µM

An empty or dashed field is not shown. Rows are shuffled and stem from different studies. Two numbers with a dash give a range or band.